The test system of the data set is host proteins (proteome-wide). The data set is described as follows: 2D-TPP in U87 cells (proteome-wide). Type of data set: binding, Homo sapiens. The following applies: 1, 3, 10 and 30 μM, of 8417 proteins detected.

For `CCOC(=O)c1cnn(-c2cccc3c2[nH]c(=O)n3C2CCN(C(=O)Nc3ccc(I)cc3)CC2)c1` [TH6744, ethyl 1-(1-(1-((4-iodophenyl)carbamoyl)piperidin-4-yl)-2-oxo-2,3-dihydro-1H-benzo[d]imidazol-4-yl)-1H-pyrazole-4-carboxylate], the “number of proteins with dose-dependent thermal destabilization” value is 126 and the “number of proteins with dose-dependent thermal stabilization” value turned out to be 94.

(Values after article PMC7762994 (Viruses, 2020).)
